Record: PubChem BioAssay AID504761 (Drosophila RNAi Screening Center, 2011)
In all, the deposit lists about 22,000 reagents; below is a random part of those that have a named target and a result. In the full data, 116 (0.52%) are marked active. 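Calls depend on retest data that are not deposited; infection was ranked per plate without normalising between plates; the unit of the infection score is not given.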 Raw values are not corrected between plates. Entries without a mark were called inactive. The numbers tell different reagents against one gene apart. Further read-outs or replicates are left out here. Not given: the amount of reagent, the time to read-out.

Assay: 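Genome-wide fly cell screen for genes dengue virus requires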 (primary screen)
Cell system: D.Mel-2 cells from Drosophila
Knock-down reagent: long dsRNA against Drosophila genes
Conditions: infection with dengue virus type 2; dose and infection time not stated
Measurement: 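Cells stained for dengue envelope protein and imaged; percent of infected cells per well on duplicate plates, ranked by infection, with stained nuclei counted for cell number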
Scale: infection score: higher = more virus-infected cells; cell count: higher = more cells in the well
Rule for the call: 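Low infection ranks in the two replicates (chance level up to 0.065) followed by a retest with a 1.5-fold or larger significant decrease, p below 0.05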
Calls: active = confirmed: knock-down lowers infection; inactive = not picked or not confirmed

For mal #1, what was measured?
infection score, replicate 1: 1.83; cell count, replicate 1: 6406

Which result is listed for mal #2?
infection score, replicate 1: 4.61; cell count, replicate 1: 6854

For cn, what was measured?
infection score, replicate 1: 8.83; cell count, replicate 1: 6095

With CG13428, what was measured?
infection score, replicate 1: 2.6; cell count, replicate 1: 5885

What did the screen give for Rtc1?
infection score, replicate 1: 18.1; cell count, replicate 1: 5629

What is on record for Non1?
infection score, replicate 1: 9.78; cell count, replicate 1: 4765

Which result is listed for rdgBbeta?
infection score, replicate 1: 20.9; cell count, replicate 1: 6250

What is on record for swi2?
infection score, replicate 1: 7.46; cell count, replicate 1: 7047

For CG3568 #1, how do the results read?
infection score, replicate 1: 15.8; cell count, replicate 1: 3726

For CG3568 #2, what was measured?
infection score, replicate 1: 2.79; cell count, replicate 1: 6782

Entries above whose target name begins with C or c (4):
cn: infection score, replicate 1 = 8.83; cell count, replicate 1 = 6095
CG13428: infection score, replicate 1 = 2.6; cell count, replicate 1 = 5885
CG3568 #1: infection score, replicate 1 = 15.8; cell count, replicate 1 = 3726
CG3568 #2: infection score, replicate 1 = 2.79; cell count, replicate 1 = 6782

The results go on.
Which result is listed for CG8468 #1?
infection score, replicate 1: 5.44; cell count, replicate 1: 7083

For CG8468 #2, how do the results read?
infection score, replicate 1: 4.15; cell count, replicate 1: 6138

What did the screen give for Incenp #1?
infection score, replicate 1: 2.84 (active); cell count, replicate 1: 6613

Which result is listed for Incenp #2?
infection score, replicate 1: 6.19; cell count, replicate 1: 3847

How did the screen score Incenp #3?
infection score, replicate 1: 3.7; cell count, replicate 1: 1459

What did the screen give for dbe?
infection score, replicate 1: 3.66; cell count, replicate 1: 6168

What did the screen give for elav?
infection score, replicate 1: 18.5; cell count, replicate 1: 6103

For Or22a #1, what was measured?
infection score, replicate 1: 2.12; cell count, replicate 1: 6496

What did the screen give for Or22a #2?
infection score, replicate 1: 14.1; cell count, replicate 1: 4167

With CG3793, how do the results read?
infection score, replicate 1: 13.7; cell count, replicate 1: 6419

For Npc2c #1, how do the results read?
infection score, replicate 1: 3.86; cell count, replicate 1: 6529

With Npc2c #2, how do the results read?
infection score, replicate 1: 12.3; cell count, replicate 1: 4201
